Measured values from several laboratories, pooled; numbers as filed in NIAID ChemDB.

All rows: tests in culture; organism: Herpes simplex virus 2; cell line: VERO; measure: EC50

An empty or dashed field is not shown. ECn is the concentration giving n% inhibition of infection, replication or growth. Conditions beyond the fields shown may differ between rows.

SMILES | strain | read by | value
COP(=O)(CC(=O)OC[C@H]1O[C@@H](n2cc(I)c(=O)[nH]c2=O)C[C@@H]1O)OC | K979 | cytopathic effect | >5.9 µM
CC#Cc1cn([C@@H]2O[C@H](COP(=O)(O)Oc3c(C)cccc3C)[C@@H](O)[C@@H]2O)c(=O)[nH]c1=O | SC16 | plaque count | >10 µM
NC(=O)c1cn(-c2ccc(F)cc2)c2cc(Cl)ccc2c1=O | - | plaque count | >12.5 µg/mL
O=c1[nH]c(=O)n([C@H]2C[C@H](O)[C@@H](COP3(=O)OCc4cc5ccccc5cc4O3)O2)cc1/C=C/Br | G (TK+) | plaque count | >128 µg/mL
O=C(O)CP(=O)(O)O | K979 | cytopathic effect | >71.4 µM
O=c1c(O)c(-c2ccccc2)oc2cc(O)cc(O)c12 | - | - | >15 µg/mL
NC(=O)c1c[se]c([C@@H]2O[C@H](CO)[C@@H](O)[C@H]2O)n1 | MS | cytopathic effect | 10 µg/mL
CC#Cc1cn([C@@H]2O[C@H](COP(=O)(O)OCC)[C@@H](O)[C@@H]2O)c(=O)[nH]c1=O | SC16 | plaque count | >100 µM
COc1cc2c(cc1-c1cc3cc4ccoc4cc3oc1=O)OCO2 | 186 | plaque count | >50 µg/mL
O=c1[nH]cnc2c1ncn2[C@@H]1O[C@@H](CO)C[C@@H]1F | - | - | >100 µM
COC(=O)[C@H](C)NP(=O)(OC[C@H]1C/C1=C\n1cnc2c(N)nc(N)nc21)Oc1ccccc1 | - | plaque count | >100 µM
Cc1cccc2c1OP(=O)(OC[C@H]1O[C@@H](n3cc(/C=C/Br)c(=O)[nH]c3=O)C[C@@H]1OC(=O)[C@@H]1CCCN1)OC2 | G (TK+) | plaque count | >128 µg/mL
O=C(O)CP(=O)(O)OC[C@H]1O[C@@H](n2cc(CCCl)c(=O)[nH]c2=O)C[C@@H]1O | K979 | cytopathic effect | >232 µM
COc1cc(O)c(CC=C(C)C)c2c1C(=O)CC(c1ccc(O)cc1)O2 | - | cytopathic effect | 17 µg/mL
Cc1cccc2c1OP(=O)(OC[C@H]1O[C@@H](n3cc(/C=C/Br)c(=O)[nH]c3=O)C[C@@H]1OC(=O)[C@@H](C)N)OC2 | G (TK+) | plaque count | >128 µg/mL
N=C(N)c1cn([C@H]2C[C@H](O)[C@@H](CO)O2)c2ncnc(N)c12 | MS | plaque count | 9 µM
COc1ccc(-c2cc(=O)c3c(O)cc(O)cc3o2)cc1 | - | - | >20 µg/mL
CCn1cc(C(=O)NCCN(C)C)c(=O)c2ccc(-c3ccncc3)cc21 | - | plaque count | >100 µg/mL
Cc1cccc2c1OP(=O)(OC[C@H]1O[C@@H](n3cc(/C=C/Br)c(=O)[nH]c3=O)C[C@@H]1OC(=O)C(C)C)OC2 | G (TK+) | plaque count | >128 µg/mL
CNc1ncnc2c1ncn2[C@@H]1O[C@@H](CO)C[C@H]1F | - | - | >100 µM
COP(=O)(CC(=O)O[C@H]1C[C@H](n2cc(CCCl)c(=O)[nH]c2=O)O[C@@H]1CO)OC | K979 | cytopathic effect | >22.7 µM
Cc1cccc2c1OP(=O)(OC[C@H]1O[C@@H](n3cc(/C=C/Br)c(=O)[nH]c3=O)C[C@@H]1OC(=O)[C@@H](N)C(C)C)OC2 | G (TK+) | plaque count | >128 µg/mL
COc1nc(N)nc2c1ncn2C=C1CC1CO | - | plaque count | >50 µM
Cc1cccc2c1OP(=O)(OC[C@H]1O[C@@H](n3cc(/C=C/Br)c(=O)[nH]c3=O)C[C@@H]1OC(=O)[C@H](N)Cc1ccccc1)OC2 | G (TK+) | plaque count | >128 µg/mL
CCn1cc(C(N)=O)c(=O)c2ccccc21 | - | plaque count | >50 µg/mL
CC1=C(C)[C@](CO)(c2ccccc2)C[C@H]1n1ccc(N)nc1=O | - | cytopathic effect | >100 µg/mL
CC#Cc1cn([C@@H]2O[C@H](COP(=O)(O)Oc3ccccc3)[C@@H](O)[C@@H]2O)c(=O)[nH]c1=O | SC16 | plaque count | >100 µM
N=C(N)c1cn([C@@H]2O[C@H](CO)[C@@H](O)[C@@H]2O)c2ncnc(N)c12 | MS | plaque count | >100 µM
COc1ccc2c(c1)COP(=O)(OC[C@H]1O[C@@H](n3cc(/C=C/Br)c(=O)[nH]c3=O)C[C@@H]1O)O2 | G (TK+) | plaque count | >128 µg/mL
CC1=C(C)[C@](CO)(c2ccccc2)C[C@H]1n1cnc2c(N)ncnc21 | - | cytopathic effect | >100 µg/mL
COC(=O)[C@H](C)NP(=O)(OC[C@H]1C/C1=C\n1cnc2c(=O)[nH]c(N)nc21)Oc1ccccc1 | - | plaque count | >100 µM
O=c1[nH]c(=O)n([C@@H]2O[C@@H](CO)C[C@H]2F)cc1F | - | - | >100 µM
COc1c2c(cc3ccoc13)C(=O)[C@@]1(O)c3cc4c(cc3OC[C@H]1O2)OCO4 | 186 | plaque count | >50 µg/mL
CC#Cc1cn([C@@H]2O[C@H](CO)[C@@H](O)[C@@H]2O)c(=O)[nH]c1=O | SC16 | plaque count | >100 µM
O=c1ccn([C@@H]2O[C@H](CO)C[C@@H]2F)c(=O)[nH]1 | - | - | >100 µM
Cc1cccc2c1OP(=O)(OC[C@H]1O[C@@H](n3cc(/C=C/Br)c(=O)[nH]c3=O)C[C@@H]1OC(=O)C(C)(C)C)OC2 | G (TK+) | plaque count | >128 µg/mL
O=C1c2cc3ccoc3cc2O[C@@H]2COc3cc4c(cc3[C@H]12)OCO4 | 186 | plaque count | >50 µg/mL
Nc1ncnc2c1ncn2CCOCP(=O)(O)O | G | plaque count | 119 µM
CCn1cc(C(=O)NOC)c(=O)c2ccc(-c3ccncc3)cc21 | - | plaque count | >25 µg/mL
Nc1nc2ncn(COCCCl)c2c(=O)[nH]1 | G | cytopathic effect | >128 µg/mL
NC(=O)c1cn(-c2ccccc2F)c2cc(-c3ccncc3)ccc2c1=O | - | plaque count | >1.6 µg/mL
Cc1cccc2c1OP(=O)(OC[C@H]1O[C@@H](n3cc(/C=C/Br)c(=O)[nH]c3=O)C[C@@H]1O)OC2 | G (TK+) | plaque count | >128 µg/mL

The first 5 rows once more:

SMILES | strain | read by | value
COP(=O)(CC(=O)OC[C@H]1O[C@@H](n2cc(I)c(=O)[nH]c2=O)C[C@@H]1O)OC | K979 | cytopathic effect | >5.9 µM
CC#Cc1cn([C@@H]2O[C@H](COP(=O)(O)Oc3c(C)cccc3C)[C@@H](O)[C@@H]2O)c(=O)[nH]c1=O | SC16 | plaque count | >10 µM
NC(=O)c1cn(-c2ccc(F)cc2)c2cc(Cl)ccc2c1=O | - | plaque count | >12.5 µg/mL
O=c1[nH]c(=O)n([C@H]2C[C@H](O)[C@@H](COP3(=O)OCc4cc5ccccc5cc4O3)O2)cc1/C=C/Br | G (TK+) | plaque count | >128 µg/mL
O=C(O)CP(=O)(O)O | K979 | cytopathic effect | >71.4 µM